“And” between values parts separate entries of the source, which are not always exact repeats. Equal values may be shown once.
Key:
[1] = target: gp145 SOSIP construct of the Env spike protein from the HIV-1 BG505 clade A strain, nanodisc-embedded trimer (HIV-1 strain BG505 (clade A)); test: cryo-EM structure
[2] = target: gp145 SOSIP construct of the Env spike protein from the HIV-1 BG505 clade A strain, nanodisc-embedded trimer (HIV-1 strain BG505 (clade A)); test: negative-stain EM

Substance: Fab fragment of broadly neutralizing antibody 4E10
- percent of ectodomains bound by at least one Fab [1]: 20%
- stoichiometry N [2]: 1 and 3
